{"source": "ChEMBL document CHEMBL3808367", "about": "“Novel HIV-1 Non-nucleoside Reverse Transcriptase Inhibitor Agents: Optimization of Diarylanilines with High Potency against Wild-Type and Rilpivirine-Resistant E138K Mutant Virus” (J Med Chem, 2016)", "key": {"[1]": {"tested_on": "Human immunodeficiency virus 1", "assay": "Resistance index, ratio of EC50 for […] resistant HIV1 A17 harboring reverse transcriptase K103N/Y181C double mutant infected in human MT2 cells to EC50 for HIV1 3B infected in human MT2 cells", "type": "functional"}, "[2]": {"tested_on": "Human immunodeficiency virus 1", "assay": "Resistance index, ratio of EC50 for rilpivirine resistant HIV1 harboring reverse transcriptase E138K mutant infected in human TZM-bl cells to EC50 for HIV1 NL4-3 infected in human TZM-bl cells", "type": "functional"}}}
{"smiles": "Cc1cc(CCC#N)cc(C)c1Oc1cc(Nc2ccc(C#N)cc2)c(N)cc1Br", "values": [{"measurement": "Ratio EC50", "setting": "[1]", "result": 26}, {"measurement": "Ratio EC50", "setting": "[2]", "result": 20}]}
